Two sequences from article PMC10783058 can be followed below.

Construct, isoform or probe ends are uncertain for at least one entry. Where a protein sequence is shown, tags need not be part of it.

The subject of series [1] is T1, TofM-His (Burkholderia glumae BGR1).
T1 sequence (looked up, limits assumed): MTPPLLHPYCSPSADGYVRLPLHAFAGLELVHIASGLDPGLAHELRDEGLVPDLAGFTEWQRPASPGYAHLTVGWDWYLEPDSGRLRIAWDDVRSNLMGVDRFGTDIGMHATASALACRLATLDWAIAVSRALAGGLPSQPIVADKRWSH
As to the kind of experiment: EMSA. Conditions: increasing TofM, 10 mM HEPES pH 7.3, 20 mM KCl, 1 mM MgCl2, 1 mM DTT, 1% glycerol, 15 min at 28 C, 4% native PAGE, recombinant protein, label: 3' biotin, probe letters rebuilt from the primers and the genome. Background: In EMSA bound probe runs differently from free probe, usually more slowly.

Series [2] shares this test system. Description: competition with a labelled probe. Conditions: 4 uM TofM, 10 mM HEPES pH 7.3, 20 mM KCl, 1 mM MgCl2, 1 mM DTT, 1% glycerol, 15 min at 28 C, 4% native PAGE, recombinant protein, label: 3' biotin, probe letters rebuilt from the primers and the genome.

Take “GGGAAUCCGAGAUAUCGCGCCGACCCUCGCGUGCCAUUUUUUCCCUGUCAAGGAUGCCAGGAAUCGGCACCGAAUCCCUGUCAGGAAUAACAGUUACCUGUCCUCGGGGCGCACGCUGUAAUGCGCCCAUUCCAAACGGAAUUACCACGAGGACACCAUGCAAACUUUCGUUCACGAGGCAGGCCGCCUUCCCGCCCAUAUCGCCGCCGAGCUGGGUUCGUACCGUUAUCGCGUGUUCGUCGAGCAGCUCGGCUGGCAGCUGCCGUCCGAAGACGAAAAAUUCGAGCGCGAUCAGUACGAUCGCGACGAU [tofI mRNA 306 nt]”: the binding result was “binds” in series [1] (25 nM RNA) and “binds” in series [2] (25 nM labeled RNA, 2.5 uM unlabeled self competitor blocks binding).
In the case of “GGGAAUCCGAGAUAUCGCGCCGACCCUCGCGUGCCAUUUUUUCCCUGUCAAGGAUGCCAGGAAUCGGCACCGAAUCCCUGUCAGGAAUAACAGUUACCUGUCCUCGGGGCGCACGCUGUAAUGCGCCCAUUCCAAACGGAAUUACCACGAGGACACCAUGCAAACUUUCGUUCACGAGGCAGGCCGCCUUCCCGCCCAUAUCGCCGCCGAGCUGGGUUCGUACCGUUAUCGCGUGUUCGUCGAGCAGCUCGGCUGGCAGCUGCCGUCCGAAGACGAAAAAUUCGAGCGCGAUCAGUACGAUCGCGACGAUACCGUCUACGUAUUGGGACGCGAUGCGAAUGGGGAGAUAUGCGGUUGCGCGCGGCUGCUGCCGACCACCCGCCCCUACCUGUUGCAGGAAGUGUUCCCGCACCUGCUGGCCGACGAGCAUCCGGCGCCGCGCUCCGCCCACGUCUGGGAGCUGUCGCGCUUCGCGGCGACCCCCGAGGAAGGGGCCGAUGCCGGCAGCCUGGCCUGGUCGGUGCGGCCGAUGCUCGCCGCCGCCGUGGAGUGCGCGGCACGGCGCGGCGCGCGCCAGUUGAUCGGGGUCACGUUCUGCAGCAUCGAGCGGCUGUUCCGCCGGAUCGGCGUGCAUGCCCACCGGGCCGGCGCACCGGUGUCGAUCGACGGGCGCAUGGUGGUGGCAUGCUGGAUCGACAUCGACGCGCAGACGCUGGCCGCGCUCGACCUCGACCCGGCGCUUUGCGCGUCGCAACCCGAAGCGGCCGGGGGGGGGUUUUUUUU [tofI mRNA 763 nt]”, the binding result is recorded as “binds” in series [1] (10 nM RNA) and “binds” in series [2] (10 nM labeled RNA, 1 uM unlabeled self competitor blocks binding).
